Test: peptide synthesis
Conditions: conjugation step

D-Tyr-Ser-Thr-Gln-Ile-Ser-Arg-Gly-Phe-Thr-Arg-Asp-Ser-Arg-Gly-Cys-Gly-Ser-Gly-Ser-Gly-Ser-Lys-DOTA cyclized between the cysteine and the chloroacetic acid
purity (crude or final not stated): exceeding 99%
